Assay results: patent US6706704B2 (priority 2001, dated 2004)

How the values were obtained:
[1] = tested on: D1-dopamine receptors (phrenic nerve activity)
Aug-E neurons = assay: Voltage clamp measurement of membrane currents in Aug-E neurons after fentanyl; settings: doxapram i.v. (1 mg/kg) after fentanyl 20 μg/kg, chloralose-anesthetized cat
[2] = tested on: phrenic nerve activity (D1-dopamine receptor agonism); assay: Reversal of fentanyl-induced respiratory depression/apnea by D1-dopamine receptor agonists (PN activity); settings: for restoration of three-phase PN respiratory rhythm after fentanyl: doses of 1.5-3.0 mg/kg i.v., pentobarbital, chloralose and decerebrate cats
[3] = tested on: postinspiratory (PI) neurons; assay: Extracellular recording of non-bulbospinal postinspiratory (PI) neuron discharges; settings: FIG. 8D, chloralose-anesthetized cat; reversal not complete

SMILES | PN discharges after doxapram ([1]; i.v. 0.5-1.0 mg/kg after fentanyl, R(+)-SCH-23390 and D1 agonist) | effect on PN activity, synaptic drive potentials and currents during fentanyl apnea (Aug-E neurons) | restoration of three-phase PN respiratory rhythm after fentanyl [2] | restoration of PN discharges after pretreatment with R(+)-SCH-23390 ([1]; fentanyl apnea, (±)-chloro-APB 1-3 mg/kg) | PI neuron and PNA discharges after fentanyl [3] | restoration of PN discharges during fentanyl apnea ([2]; 1 mg/kg, pentobarbital-anesthetized cat) | further effect of increased dose ([2]; 4.5 mg/kg, chloralose-anesthetized cat) | restoration of PN discharges after fentanyl apnea ([2]; cumulative dose 3 mg/kg after fentanyl 30 μg/kg, chloralose-anesthetized cat)
CCN1CC(CCN2CCOCC2)C(c2ccccc2)(c2ccccc2)C1=O (stereo not drawn) | evoked strong PN discharges at the same frequency as control | reinstated PN activity as well as synaptic drive potentials and currents |  |  |  |  |  | 
Oc1cc2c(cc1O)C(c1ccccc1)CNCC2 (racemic) |  |  | consistently restored the three-phase PN respiratory rhythm |  |  |  |  | 
Br.C=CCN1CCc2c(cc(O)c(O)c2Cl)C(c2ccccc2)C1 (racemic) [(±)-chloro-APB, (+/−)6-chloro-7,8-dihydroxy-3-allyl-1-phenyl-2,3,4,5-tetrahydro-1H-3-benzazepine hydrobromide] |  |  | consistently restored the three-phase PN respiratory rhythm | failed to restore PN discharges | restored rhythmic discharges | restored PN discharges | produced no further change | restored inspiratory and postinspiratory PN discharges
